PubChem BioAssay AID624099 – ICCB-Longwood | 2012

Assay: 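Host factors E2 relies on to silence an HPV18 LCR reporter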 (primary screen)
System: human C33A cervical carcinoma cells (HPV-negative) stably expressing BPV1 E2 and an HPV18 LCR luciferase reporter
Reagents: siRNA pool against human genes, 40 nM
Time to read-out: 72 h
Measured: 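HPV18 LCR reporter light per well, converted to plate-wise z-scores that exclude control wells, and averaged over triplicate plates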
Direction: mean z-score and z-score: higher = stronger reporter signal, weaker E2 silencing
Hit rule: 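Mean z ≥ 2 together with z ≥ 2 in two or more of the three replicates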
The deposit covers about 21,000 reagents; below is a random part of them. Of all reagents, 497 (2.4%) got an active call. 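Higher z means weaker E2 silencing; only reporter increases were scored, and knock-downs that hurt cell survival may mask genuine repressor factors.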 Entries without a mark were called inactive.

no.	target	mean z-score	z-score, replicate A	z-score, replicate B	z-score, replicate C
1	SLC33A2	2.62 (active)	2.63	2.77	2.45
2	SLFNL1	1.04	1.26	0.85	1
3	LOC401471	0.89	0.84	1.01	0.83
4	SRSF6	-0.02	-0.01	-0.23	0.17
5	AP5B1	1.2	1.38	0.9	1.31
6	TSPAN15	1.17	1.14	1.08	1.28
7	LINC00052	-0.83	-0.76	-1.06	-0.68
8	RPL23P5	-0.06	0.06	0.19	-0.44
9	DNAJB11	0.15	0.3	0.14	-0.01
10	KBTBD6	-0.69	-1	-0.84	-0.23
11	METTL13	1.2	1.08	1.34	1.18
12	NUDT3	-1.48	-1.52	-1.41	-1.5
13	PDPN	-0.09	0.04	-0.08	-0.24
14	LOC391705 (retired record)	-0.45	-0.13	-0.82	-0.4
15	CIAO1	-0.02	-0.07	0.05	-0.05
16	GAS1	0.16	0.04	0.16	0.29
17	AQP3	-1.91	-1.64	-1.96	-2.15
18	POLD2	1.05	0.83	1.42	0.89
19	TMEM50A	1.02	0.89	1.13	1.04
20	LOC145780 (retired record)	-0.1	-0.31	0.04	-0.03

6 of these entries in another layout.
KBTBD6 — mean z-score = -0.69; z-score, replicate A = -1; z-score, replicate B = -0.84; z-score, replicate C = -0.23
METTL13 — mean z-score = 1.2; z-score, replicate A = 1.08; z-score, replicate B = 1.34; z-score, replicate C = 1.18
NUDT3 — mean z-score = -1.48; z-score, replicate A = -1.52; z-score, replicate B = -1.41; z-score, replicate C = -1.5
PDPN — mean z-score = -0.09; z-score, replicate A = 0.04; z-score, replicate B = -0.08; z-score, replicate C = -0.24
LOC391705 (retired record) — mean z-score = -0.45; z-score, replicate A = -0.13; z-score, replicate B = -0.82; z-score, replicate C = -0.4
CIAO1 — mean z-score = -0.02; z-score, replicate A = -0.07; z-score, replicate B = 0.05; z-score, replicate C = -0.05

More reagents follow.
no.	target	mean z-score	z-score, replicate A	z-score, replicate B	z-score, replicate C
21	CSK	1.72	1.49	1.75	1.9
22	PTK6	0.97	1.25	0.75	0.91
23	RPS12	-1.87	-1.98	-1.75	-1.89
24	LOC342600 (retired record)	-1.14	-1.15	-1.5	-0.78
25	B3GAT2	0.17	0.15	0.16	0.18
26	DPYSL2	1.29	1.48	1.14	1.23
27	ARHGEF9	1.38	1.29	1.39	1.46
28	HACD1	-1.14	-1.18	-1.08	-1.15
29	GEM	0.04	0.49	-0.19	-0.19
30	LOC286478 (retired record)	0.83	0.93	0.58	0.96
31	ELFN2	-1.83	-1.65	-1.95	-1.89
32	HSD17B14	2.94 (active)	3.05	2.99	2.78
33	TSTD2	-1.32	-1.18	-1.17	-1.62
34	LPA	0.11	-0.08	0.18	0.25
35	MRPL32	0.42	0.12	0.42	0.73
36	LOC389778 (retired record)	-0.11	-0.02	-0.02	-0.29
37	PIK3IP1	1.77	2.1	1.61	1.6
38	RGS4	-0.07	0	-0.2	-0.03
39	NPTX2	-0.93	-0.76	-0.97	-1.06
